Compound potency records, mixed from different reports. Data source: NIAID ChemDB in PubChem.

All rows: growth or infection tests; species: HIV-1; read-out: EC50

Blank or dashed fields: not listed here. ECn is the concentration giving n% inhibition of infection, replication or growth. Lines come from different laboratories, so protocols vary.

| smiles | strain | mutations | cells | read by | conditions | result |
|---|---|---|---|---|---|---|
| CON(C)C(=O)c1cc(C#N)cc(C(=O)c2cc(Cl)ccc2OCC(=O)Nc2ccc(S(N)(=O)=O)cc2C)c1 | - | WTRVA | HeLa | - | - | 0.0055 µM |
| CC1CNCCN1S(=O)(=O)c1cccc2cnccc12 | - | - | MOLT-4/HIV-1 + MOLT-4 | p24 / ELISA | - | 60 µM |
| Cc1cn([C@H]2C[C@H](N=[N+]=[N-])[C@@H](CO)O2)c(=O)[nH]c1=O | NL4-3 | - | MAGIC-5A | β-galactosidase / absorbance | - | 0.029 µM |
| Cc1nnc(C(=O)NC(C)(C)c2nc(C(=O)NCc3ccc(F)cc3)c(O)c(=O)n2C)o1 | NL4-3 | - | Primary T lymphocytes | - | - | 0.017 µM |
| Cc1cc(N)c(C)c2c1[nH]c1c(Cl)cccc12 | NL4-3 | - | TZM-bl | luminescence | - | 10.2 µM |
| Cc1ccnc2c1NC(=O)c1cccnc1N2C1CC1 | NL4.3-XCS | K103N (NVP) | HeLa CD4 | β-galactosidase | - | 2.566 µM |
| CC[C@H](C)[C@H](C(=O)O)N1C[C@H](CN2CCC(c3cc(Cc4ccc(-c5ccccc5)cc4)nn3CC)CC2)[C@@H](c2cccc(F)c2)C1 | BaL | - | HeLa | β-galactosidase | 50% human serum | <0.033 µM |
| CCCc1cc(=O)oc2c3c(c4c(c12)OC(C)(C)C=C4)O[C@@H](C)[C@H](C)[C@@H]3O | Nevirapine-resistant (RT Y181C) | RT-Y181C | CEM + CEM-SS | XTT | - | <0.01 µM |
| Cc1cc(N)c(C)c2c1[nH]c1cc(Cl)ccc12 | BaL | - | TZM-bl | luminescence | - | 9.5 µM |
| CCCc1cc(=O)oc2c3c(c4c(c12)OC(C)(C)C=C4)O[C@H](C)[C@@H](C)[C@@H]3O | IIIB | - | AA5 | XTT | - | 0.2 µM |
| NS(=O)(=O)c1ccc(Oc2ccc(NC(=O)N[C@@H]3[C@@H]4CCc5c(F)ccc(F)c5[C@@H]43)cc2)cc1 | IIIB | Y181C | MT-4 cells | ELISA | - | 0.0053 µM |
| Cc1cn([C@H]2C[C@H](N=[N+]=[N-])[C@@H](CO)O2)c(=O)[nH]c1=O | NL4.3-XCS | M184V (3TC-resistant) | HeLa CD4 | β-galactosidase | - | 0.021 µM |
| CC(=O)Nc1cc(C#N)cc(C(=O)c2cc(Cl)ccc2OCC(=O)Nc2ccc(S(N)(=O)=O)cc2C)c1 | - | K103N | HeLa | - | - | 0.23 µM |
| Clc1cc(CN2CCCNCCNCCCNCC2)c(Cl)cc1CN1CCCNCCNCCCNCC1 | 168.10 | - | SupT1 + Sup-T1 | cytopathic effect / MTT | - | 0.048 µg/mL |
| CCn1nc(Cc2ccc(S(=O)(=O)c3ccccc3)cc2)cc1C1CCN(C[C@H]2CN([C@@H](C(=O)O)C(C)C)C[C@@H]2c2cccc(F)c2)CC1 | BaL | - | HeLa | β-galactosidase | 50% human serum | <0.033 µM |
| C=C1CC23CCC4[C@@](C)(CCC[C@@]4(C)C(=O)O)C2CC[C@H]1C3 | MC99 (Tat/Rev defective) | - | 1A2 | syncytia | - | 13.7 µg/mL |
| Cc1cn([C@H]2C=C[C@@H](CO)O2)c(=O)[nH]c1=O | NL4-3 | +Vpx | MDM | - | - | 2.009 µM |
| COc1cc(CN2CCCNCCNCCCNCC2)c(OC)cc1CN1CCCNCCNCCCNCC1 | 168.10 | - | SupT1 + Sup-T1 | cytopathic effect / MTT | - | 0.01 µg/mL |
| Cc1cn([C@@H]2C[C@H](COP(O)(=S)OCCCCCCN)[C@@H](OP(O)(=S)OC[C@H]3OCC[C@@H]3OP(O)(=S)OC[C@H]3OCC[C@@H]3OP(O)(=S)OC[C@H]3OCC[C@@H]3OP(O)(=S)OC[C@H]3OCC[C@@H]3OP(O)(=S)OC[C@H]3OCC[C@@H]3OP(O)(=S)OC[C@H]3OCC[C@@H]3OP(O)(=S)OC[C@H]3OCC[C@@H]3OP(O)(=S)OC[C@H]3OCC[C@@H]3OP(O)(O)=S)C2)c(=O)[nH]c1=O | - | - | MAGI-CCR5 | β-galactosidase / single cycle | - | >1 µM |
| Fc1cccc(F)c1C1SCc2nc3ccccc3n21 | Costatolide-resistant (RT L100I T139I) | RT-L100I T139I | CEM + CEM-SS | XTT | - | >69 µM |
| CC(C)(O)c1cccc(CN2C(=O)N(Cc3cccc(C(C)(C)O)c3)[C@H](Cc3ccccc3)[C@H](O)[C@@H](O)[C@H]2Cc2ccccc2)c1 | HXB2 | PR-184V | MT-2/MT-4 + MT-2 | p24 | - | <0.0722 µM |
| CN1CC[C@H](c2c(O)cc(O)c3c(=O)cc(-c4ccccc4Cl)oc23)[C@H](O)C1 | IIIB | - | PM1 | p24 | - | <0.012 µM |
| O=C1N(Cc2cccc(CO)c2)[C@H](Cc2ccccc2)[C@H](O)[C@@H](O)[C@@H](Cc2ccccc2)N1Cc1cccc(CO)c1 | RF | - | MT-2/MT-4 + MT-2 | - | - | <0.0388 µM |
| Cc1cc(=O)c2ccc(N=C=S)cc2o1 | NL4-3 | - | CEM-GFP | p24 / ELISA | - | 0.1775 µM |
| CSc1ccccc1NC(=O)CSc1nnnn1-c1ccccc1SC | NL4.3-XCS | 41-215 (AZT-resistant) | HeLa CD4 | β-galactosidase | - | 0.137 µM |
| CCOC(=O)c1cc(C#N)cc(C(=O)c2cc(Cl)ccc2OCC(=O)Nc2ccc(S(N)(=O)=O)cc2C)c1 | - | WTRVA | HeLa | - | - | 0.0009 µM |
| CN1C(=O)CN=C(c2ccc(Cl)cc2)c2cc(Cl)ccc21 | SF162 | - | U1 | - | - | 3 µM |
| Cc1cn([C@H]2C[C@H](N=[N+]=[N-])[C@@H](CO)O2)c(=O)[nH]c1=O | HEPT-resistant (RT P236L) | RT-P236L | CEM + CEM-SS | XTT | - | 0.01 µM |
| Nc1nc(=O)n([C@H]2CO[C@@H](CO)S2)cc1F | 1075 (AZT-resistant) | - | CBMC | RT activity | - | 0.5 µM |
| Nc1ccn([C@H]2CC[C@@H](CO)O2)c(=O)n1 | HXB2 | RT-V75T | CD4+HELA + HeLa | plaque count | - | 1.35 ± 0.07 µM |
| Cc1ccnc2c1NC(=O)c1cccnc1N2C1CC1 | NL4-3 | - | MDM | - | - | 0.274 µM |
| Cc1cc(S(N)(=O)=O)ccc1NC(=O)COc1ccc(Cl)cc1C(=O)c1cc(C#N)cc(OCF)c1 | - | Y181C | HeLa | - | - | 0.0015 µM |
| O=c1[nH]cnc2c1ncn2[C@H]1CC[C@@H](CO)O1 | NL4-3 | +Vpx | MDM | - | - | 2.251 µM |
| Cc1ccnc2c1NC(=O)c1cccnc1N2C1CC1 | HxB2D(RT-D67G) | RT-D67G | CBMC | RT activity | - | 0.013 µM |
| Cc1cc(S(N)(=O)=O)ccc1NC(=O)COc1ccc(Cl)cc1C(=O)c1cc(C#N)cc(OC(F)F)c1 | - | V106A | HeLa | - | - | 0.0059 µM |
| Nc1nc(=O)n([C@@H]2CO[C@H](CO)S2)cc1F | 4246 | - | CBMC | RT activity | - | 0.4 µM |
| Cc1cn([C@H]2C[C@H](N=[N+]=[N-])[C@@H](CO)O2)c(=O)[nH]c1=O | A018A | - | MAGI + MAGI-CCR5 | β-galactosidase | - | 0.0506 µM |
| COc1cc(O)c2c(=O)oc3cc(O)cc(C)c3c2c1 | NL4-3 | - | SupT1 | luciferase | pseudotyped | 30.9 µM |
| c1cc(CN2CCCNCCCNCCNCCC2)cc(CN2CCCNCCCNCCNCCC2)c1 | 168.10 | - | SupT1 + Sup-T1 | cytopathic effect / MTT | - | 0.24 µg/mL |
| CCn1nc(Cc2ccc(O)cc2)cc1C1CCN(C[C@H]2CN([C@@H](C(=O)O)C(C)C)C[C@@H]2c2cccc(F)c2)CC1 | BaL | - | HeLa | β-galactosidase | 50% human serum | <0.033 µM |
| CCOC(=O)[C@H](CS)NC(=O)CC[C@H](N)C(=O)O | IIIB | - | H9(HIV-1(IIIB)) + H9 | p24 | - | 400 µM |
| Cc1cc(OC[C@H]2CNCCO2)ccc1NC(=O)COc1ccc(Cl)cc1C(=O)c1cc(C#N)cc(OC(F)F)c1 | - | V106A | HeLa | - | - | 0.0031 µM |
| CC[C@H](C)[C@H](C(=O)O)N1C[C@H](CN2CCC(c3cc(Cc4cccc(OC)c4)nn3CC)CC2)[C@@H](c2cccc(F)c2)C1 | BaL | - | HeLa | β-galactosidase | 50% human serum | <0.1 µM |
| C=C1[C@H]2CCC3C(CCC4[C@@]3(C)CCC[C@@]4(C)C(=O)O)(C2)[C@@H]1O | MC99 (Tat/Rev defective) | - | 1A2 | syncytia | - | 33.9 µg/mL |
| CC(=O)c1cc(C#N)cc(C(=O)c2cc(Cl)ccc2OCC(=O)Nc2ccc(S(N)(=O)=O)cc2C)c1 | - | Y181C | HeLa | - | - | 0.0019 µM |
| Cc1cc([N+](=O)[O-])c(C)c2c1[nH]c1cc(Cl)ccc12 | BaL | - | TZM-bl | luminescence | - | 5.3 µM |
| CCc1c(C(=O)c2cc(C)cc(C)c2)n(CC2CC=CC2)c(=O)[nH]c1=O | IIIB | - | AA5 | cytopathic effect / XTT | - | 0.009 µM |
| Cc1cc(S(N)(=O)=O)ccc1NC(=O)COc1ccc(Cl)cc1C(=O)c1cc(C#N)cc(OC(F)(F)F)c1 | - | Y181C | HeLa | - | - | 0.0003 µM |
| C#C[C@]1(CO)O[C@@H](n2cnc3c(N)nc(F)nc32)CC1O | NL4-3 | M184V | MAGIC-5A | β-galactosidase / absorbance | - | 0.018 µM |
| CC[C@@H](C)[C@H](C(=O)O)N1C[C@H](CN2CCC(c3cc(Cc4ccc(-c5ccccc5)cc4)nn3CC)CC2)[C@@H](c2cccc(F)c2)C1 | BaL | - | HeLa | β-galactosidase | 50% human serum | <0.3 µM |
| Cc1cn([C@H]2C[C@H](N=[N+]=[N-])[C@@H](CO)O2)c(=O)[nH]c1=O | P035A (RT-T215Y) | RT-T215Y | HT4 + HT4-6C | plaque count | - | 0.56 µM |
| Fc1c(F)c(CN2CCCNCCNCCCNCC2)c(F)c(F)c1CN1CCCNCCNCCCNCC1 | 168.10 | - | SupT1 + Sup-T1 | cytopathic effect / MTT | - | 0.02 µg/mL |
| Cc1cc(S(N)(=O)=O)ccc1NC(=O)COc1ccc(Cl)cc1C(=O)c1cc(Cl)cc(C#N)c1 | NNRTI-resistant (RT V106I Y181C) | RT-V106I Y181C | MAGI | β-galactosidase | - | 0.0049 µM |
| C=C(CC[C@@H](C)[C@H]1CC[C@@]2(C)C3CCC4C(C)(C)[C@@H](OC(=O)CCCCCCCCCCCCCCC)CC[C@@]45C[C@@]35CC[C@]12C)C(C)(C)O | MC99 (Tat/Rev defective) | - | 1A2 | syncytia | - | 108.7 µg/mL |
| c1ccc(-c2cc(CN3CCCNCCNCCCNCC3)ccc2CN2CCCNCCNCCCNCC2)cc1 | 168.10 | - | SupT1 + Sup-T1 | cytopathic effect / MTT | - | 0.24 µg/mL |
| Cc1cc(S(N)(=O)=O)ccc1NC(=O)COc1ccc(Cl)cc1C(=O)c1cc(C#N)cc([N+](=O)[O-])c1 | - | Y181C | HeLa | - | - | 0.0015 µM |
| Cc1cn([C@H]2C=C[C@@H](CO)O2)c(=O)[nH]c1=O | RTMC (RT-V 75A) | RT-V75A | CD4+HELA + HeLa | plaque count | - | 1.4 ± 0.28 µM |
| Cc1ccnc2c1NC(=O)c1cccnc1N2C1CC1 | Calanolide A-resistant (RT T139I) | RT-T139I | CEM + CEM-SS | XTT | - | 0.01 µM |

A second listing of 7 rows from above:

smiles,strain,mutations,cells,read by,conditions,result
Cc1cn([C@H]2C[C@H](N=[N+]=[N-])[C@@H](CO)O2)c(=O)[nH]c1=O,NL4.3-XCS,M184V (3TC-resistant),HeLa CD4,β-galactosidase,-,0.021 µM
Clc1cc(CN2CCCNCCNCCCNCC2)c(Cl)cc1CN1CCCNCCNCCCNCC1,168.10,-,SupT1 + Sup-T1,cytopathic effect / MTT,-,0.048 µg/mL
C#C[C@]1(CO)O[C@@H](n2cnc3c(N)nc(F)nc32)CC1O,NL4-3,M184V,MAGIC-5A,β-galactosidase / absorbance,-,0.018 µM
CCn1nc(Cc2ccc(S(=O)(=O)c3ccccc3)cc2)cc1C1CCN(C[C@H]2CN([C@@H](C(=O)O)C(C)C)C[C@@H]2c2cccc(F)c2)CC1,BaL,-,HeLa,β-galactosidase,50% human serum,<0.033 µM
COc1cc(CN2CCCNCCNCCCNCC2)c(OC)cc1CN1CCCNCCNCCCNCC1,168.10,-,SupT1 + Sup-T1,cytopathic effect / MTT,-,0.01 µg/mL
CC[C@@H](C)[C@H](C(=O)O)N1C[C@H](CN2CCC(c3cc(Cc4ccc(-c5ccccc5)cc4)nn3CC)CC2)[C@@H](c2cccc(F)c2)C1,BaL,-,HeLa,β-galactosidase,50% human serum,<0.3 µM
O=C1N(Cc2cccc(CO)c2)[C@H](Cc2ccccc2)[C@H](O)[C@@H](O)[C@@H](Cc2ccccc2)N1Cc1cccc(CO)c1,RF,-,MT-2/MT-4 + MT-2,-,-,<0.0388 µM